Measurements as given in PMC3823233.

Molecular target: JRFL gp120 core containing a short (mini) V3 region (HIV-1 (isolate JR-FL))
Experiment: ITC

Substance: PGT 135 Fab
- Kd: 82 nM
